This note sets out measurements from article doi:10.1101/2024.12.23.630153v1 (biorxiv, 2024).

Data set [1] concerns the target T1, OXA-57 (Burkholderia pseudomallei, UniProt Q6ZZZ2). Briefly: biochemical.
The target in data set [2] is T1, OXA-57. The experiment in a line: biochemical. The settings on record: pIC50.
Data set [3] deals with CC1(C)S[C@@H]2[C@H](NC(=O)[C@H](N)c3ccccc3)C(=O)N2[C@H]1C(=O)O. The experiment in a line: purified protein.
For data set [4], the system named is C[C@@H](O)[C@H]1C(=O)N2C(C(=O)O)=C(SCCN=CN)C[C@H]12. The experiment in a line: purified protein.
Data set [5] deals with CC(=O)OCC1=C(C(=O)O)N2C(=O)[C@@H](NC(=O)Cc3cccs3)[C@H]2SC1. Briefly: purified protein.
For data set [6], the system named is C[C@@H](O)[C@H]1C(=O)N2C(C(=O)O)=C(S[C@@H]3CN[C@H](C(=O)N(C)C)C3)[C@H](C)[C@H]12. Briefly: purified protein.

pIC50: −log10 of the molar value. Several values for one entry are separate records, joined by “and”; a condition that tells them apart may be missing. Identical values can stand only once. Like-named read-outs stand apart in the source and are kept apart here.

Take `NC(=O)[C@@H]1CC[C@@H]2CN1C(=O)N2OS(=O)(=O)O` [Avibactam]: the pIC50 on OXA-57 [1] is 4.88; against OXA-57 [2] it was 4.70 and 4.20.

For the compound OXA-57 (Burkholderia pseudomallei), the Michaelis constant (Km) came to 131 ± 32 µM in data set [3], 51 ± 12 µM in data set [4], 238 ± 44 µM in data set [5] and 21 ± 7 µM in data set [6].
